Results of unrelated studies side by side (data: NIAID ChemDB).

Common to all: growth or infection tests; species: HIV-1; cell line: H9; measure: EC50

ECn: concentration that inhibits the pathogen or its effect by n%. Blank or dashed fields: not listed here. Neighbouring rows are from separate reports.

SMILES	strain	mutations	read by	value
COc1cc(-c2cc(=O)c3c(O)c(OC)c(OC)cc3o2)c(O)cc1O	IIIB		p24 / ELISA	17.3 µg/mL
CC1(C)CC[C@]2(C(=O)O)CC[C@]3(C(=O)/C=C/c4ccc(O)c(O)c4)C(=CCC4[C@@]5(C)CC[C@H](O)C(C)(C)C5CC[C@]43C)[C@@H]2C1				1.53 µg/mL
CC1(C)CC[C@]2(C(=O)O)CC[C@]3(C)C(=CC[C@@H]4[C@@]5(C)CC[C@H](O)C(C)(C)[C@@H]5CC[C@]43C)[C@@H]2C1	IIIB		p24	0.5 µg/mL
Nc1nc(=O)n([C@H]2C[C@H](O)[C@@H](CO)O2)cc1-c1ccncc1	IIIB		RT activity	>10 µg/mL
CC(C)CC(SCc1ccccc1)c1c(O)cc(-c2ccccc2)oc1=O	IIIB		p24	28 µM
CCC(C1=C(O)CC(CC(C)C)(CC(C)C)OC1=O)c1cccc(NS(=O)(=O)c2ccc(C#N)cn2)c1	IIIB			2.5 µM
CCCCCC/C=C\C/C=C\CCCCCCC(=O)O[C@H](COC(=O)CCCCCCCCCCCCCCC)COP(=O)(O)OC1[C@@H](O)[C@H](O)C(O)[C@H](O)[C@@H]1O			p24 / ELISA	<30 µM
COC(=O)[C@H]1CC[C@H]2[C@@H]3CC=C4CC(O)CC[C@]4(C)[C@H]3CC[C@]12C	IIIB		p24	18 µM
CC(C)=CCN1Cc2cccc3[nH]c(=S)n(c23)C[C@@H]1C	MN		antigen	0.201 µM
Cc1cn([C@H]2C[C@H](N=[N+]=[N-])[C@@H](CO)O2)c(=O)[nH]c1=O	IIIB		RT activity	0.13 µM
CC(C)(C)OC(=O)N[C@@H](Cc1ccc(OCCN2CCOCC2)cc1)[C@@H](O)C[C@@H](Cc1ccccc1)C(=O)N[C@H]1c2ccccc2C[C@H]1O	IIIB		antigen	<0.05 µM
Nc1nc(=O)n([C@@H]2C[C@H](O)[C@@H](CO)O2)cc1-c1ccc[se]1	IIIB		RT activity	>10 µg/mL
Cc1cn([C@H]2C[C@H](N=[N+]=[N-])[C@@H](CO)O2)c(=O)[nH]c1=O	IIIB		p24	0.04 µg/mL
CC(C)(C)NC(=O)[C@H]1CC[C@H]2[C@@H]3CCC4=CC(=O)CC[C@]4(C)[C@H]3CC[C@]12C	IIIB		p24	0.8 µM
C[C@@H]1CC[C@]2(C(=O)O)CC[C@]3(C)C(=CCC4[C@]5(C)C(CC[C@]43C)C(C)(C)[C@@H](O)[C@H](O)[C@H]5O)C2[C@]1(C)O	IIIB		p24	35 µg/mL
O=C(O)P(=O)(O)O	IIIB		p24 / ELISA	5 µM
O=C(O)P(=O)(O)O			p24 / ELISA	<25 µg/mL
COC(=O)[C@H]1CC[C@H]2[C@@H]3CCC4=CC(=O)CC[C@]4(C)[C@H]3CC[C@]12C	IIIB		p24	8.47 µM
Cc1ccnc2c1NC(=O)c1cccnc1N2C1CC1	MN		p24	0.09 µg/mL
CC[C@H](C)[C@H](NC(=O)[C@H](C(C)C)[C@@H](O)[C@H](O)[C@H](CC1CCCCC1)NC(=O)[C@H](Cc1cnc[nH]1)NC(=O)COc1cccc2ccccc12)C(=O)NCc1ccccn1	IIIB		p24	0.1 µM
Nc1ncnc2c1ncn2[C@@H]1C[C@H](CO)[C@@H](F)C1	IIIB		p24 / ELISA	10 µg/mL
Cc1cc(=O)oc2c3c(ccc12)SC[C@H](OC(=O)C12CCC(C)(C(=O)O1)C2(C)C)[C@@H]3OC(=O)C12CCC(C)(C(=O)O1)C2(C)C	IIIB		p24	0.141 µM
COCCN(CCOC)CCOc1ccc(C[C@H](C[C@H](O)[C@H](Cc2ccccc2)NC(=O)OC(C)(C)C)C(=O)N[C@H]2c3ccccc3C[C@H]2O)cc1	IIIB		antigen	<0.05 µM
CC(C)(C)NC(=O)[C@@H]1CN(Cc2cc(Br)cs2)CCN1C[C@@H](O)C[C@@H](Cc1cccnc1)C(=O)N[C@H]1c2ccccc2C[C@H]1O	IIIB		p24	<0.025 µM
CCCC1(CCC)CC(O)=C(C(CC)c2cccc(NS(=O)(=O)c3ccc(C#N)cn3)c2)C(=O)O1	IIIB			0.49 µM
O=C(O)C(=O)/C=C(\O)c1cc(/C(O)=C/C(=O)C(=O)O)c2ccccc2n1	IIIB		p24	61 µM
CC(C)(C)OC(=O)N[C@@H](Cc1ccccc1)[C@@H](O)C[C@@H](Cc1ccc(OCC[N+]2([O-])CCOCC2)cc1)C(=O)N[C@H]1c2ccccc2C[C@H]1O	IIIB		p24	<0.1 µM
O=c1cc(-c2ccc(O)cc2)oc2cc(O)cc(O)c12	IIIB		p24	9 µg/mL
CCC(C)(CC(=O)O)CC(=O)O[C@H]1CC[C@@]2(C)C(CC[C@]3(C)C2CC=C2C4CC(C)(C)CC[C@]4(C(=O)O)CC[C@]23C)C1(C)C	IIIB		p24	1.1 µg/mL
CC(C)(C)NC(=O)[C@@H]1CN(Cc2cc3sccc3s2)CCN1C[C@@H](O)C[C@@H](Cc1cccnc1)C(=O)N[C@H]1c2ccccc2C[C@H]1O	IIIB		p24	<0.006 µM
CC1(C)CC[C@]2(C(=O)O)CC[C@]3(C)C(=CCC4[C@@]5(C)CC[C@H](OC(=O)CCC(=O)O)C(C)(C)C5CC[C@]43C)C2C1	IIIB		p24	6.1 µg/mL
CCCC1(CCC)CC(O)=C(C(CC)c2cccc(NS(=O)(=O)c3ccc(F)cc3)c2)C(=O)O1	IIIB			1.6 µM
CC(C)(C)OC(=O)N[C@@H](Cc1ccc(OCCN2CCOCC2)cc1)[C@@H](O)C[C@@H](Cc1ccc(OCCN2CCOCC2)cc1)C(=O)N[C@H]1c2ccccc2C[C@H]1O	IIIB		antigen	<0.1 µM
C[C@@H]1CC[C@]2(C(=O)O)CC[C@]3(C)C(=CCC4[C@@]5(C)C[C@@H](O)[C@H](O)C(C)(C)C5CC[C@]43C)C2[C@H]1C	IIIB		p24	4 µg/mL
CC1=C2OCC(C)c3c(O)cc(C)c(c32)C(=O)C1=O				16.58 µg/mL
C[C@H]1[C@H](C)CC[C@]2(C(=O)O)CC[C@]3(C)C(=CC[C@@H]4[C@@]5(C)CC[C@H](O)C(C)(C)[C@@H]5CC[C@]43C)[C@H]12	IIIB		p24	2 µg/mL
Nc1ccn([C@H]2CC[C@@H](CO)O2)c(=O)n1	IIIB		p24	0.0318 µM
O=C(/C=C/c1ccc(O)c2c1[C@H](C(=O)O)[C@@H](c1ccc(O)c(O)c1)O2)O[C@H](Cc1ccc(O)c(O)c1)C(=O)O				2 µM
C=C(C)OC(=O)N1c2cc(Cl)ccc2NC(=S)C1(C)C	A1(RT-G190E)	RT-G190E	p24	>10 µg/mL
CCCC1(CCC)CC(O)=C(C(CC)c2cccc(NS(=O)(=O)c3ccc(C(N)=O)cn3)c2)C(=O)O1	IIIB			1.9 µM
Cc1cn([C@H]2C[C@H](N=[N+]=[N-])[C@@H](CO)O2)c(=O)[nH]c1=O			p24	0.04 µM
Nc1nc(=O)n([C@H]2C[C@H](O)[C@@H](CO)O2)cc1-c1ccc[se]1	IIIB		RT activity	>10 µg/mL
C[C@@H]1[C@H](O)[C@@H](C)/C=C/C=C/CC/C=C/C=C/C=C/C=C/C(O[C@H]2O[C@H](C)[C@@H](O)[C@H](N)[C@@H]2O)CC2O[C@](O)(CC(O)C(O)CCC(O)CC(O)CC(O)CC(=O)O[C@H]1C)CC(O)C2C(=O)O			RT activity	<5 µg/mL
COc1cc(O)c2c(=O)c3c(O)c(-c4c(O)c([C@@H]5O[C@H](CO)[C@@H](O)[C@H](O)[C@H]5O)c(O)c5c(=O)cc(-c6ccc(O)c(O)c6)oc45)cc(O)c3oc2c1	IIIB		p24	30.9 µg/mL
CCCCCC/C=C\C/C=C\CCCCCCC(=O)O[C@H](COC(=O)CCCCCCCCCCCCCCC)COP(=O)([O-])O.[Na+]			p24 / ELISA	42 µM
CCc1cc(NCc2nc3c(Cl)ccc(Cl)c3o2)c(=O)[nH]c1C	MN		antigen	0.067 µM
O=C1N(Cc2ccc(CO)cc2)[C@H](Cc2ccccc2)[C@H](O)[C@@H](O)[C@@H](Cc2ccccc2)N1Cc1ccc(CO)cc1	RF		virus yield	<0.04 µM
CC(C)(C)NC(=O)[C@@H]1CN(Cc2cc3ccsc3s2)CCN1C[C@@H](O)C[C@@H](Cc1cccnc1)C(=O)N[C@H]1c2ccccc2C[C@H]1O	IIIB		p24	<0.006 µM
CCC(C1=C(O)CC(CCc2ccccc2)(CCc2ccccc2)OC1=O)c1cccc(NS(=O)(=O)c2ccc(C#N)cn2)c1	IIIB			0.19 µM
Cc1ccc(C(=O)OC[C@H]2O[C@@H](n3cc(-c4sccc4C)c(=O)[nH]c3=O)C[C@@H]2OC(=O)c2ccc(C)cc2)cc1	IIIB		RT activity	<10 µg/mL
Nc1ccn([C@@H]2O[C@H](CO)C[C@H]2F)c(=O)n1	IIIB		p24 / ELISA	1 µg/mL
Nc1nc(=O)n([C@H]2C[C@H](O)[C@@H](CO)O2)cc1-c1ccco1	IIIB		RT activity	>10 µg/mL
C[C@@H]1CC[C@]2(C(=O)O)CC[C@]3(C)C(=CC[C@@H]4[C@@]5(C)CC[C@H](O)C(C)(C)[C@@H]5CC[C@]43C)[C@@H]2[C@]1(C)O	IIIB		p24	1.4 µg/mL
CCCCCCCCCCCCCCCC(=O)Nc1ncnc2c1ncn2[C@@H]1O[C@H](CO)[C@@H](F)[C@H]1O	IIIB		p24 / ELISA	1 µg/mL
CC(C)[C@H](NC(=O)N(C)Cc1ccccn1)C(=O)N[C@@H](Cc1ccccc1)[C@H](O)[C@H](O)[C@H](Cc1ccccc1)NC(=O)[C@@H](NC(=O)N(C)Cc1ccccn1)C(C)C	LAI		p24	0.1 µM
CCCC1(CCC)CC(O)=C([C@H](CC)c2cccc(NS(=O)(=O)c3ccc(C(F)(F)F)cn3)c2)C(=O)O1	IIIB			0.2 µM
COC(=O)[C@H]1[C@@H]2C[C@@H](O[C@@H]3O[C@H](C)[C@@H](O)[C@H](N)[C@@H]3O)/C=C/C=C/C=C/C=C/C=C/C=C/C=C/[C@H](C)[C@@H](O)[C@H](C)[C@H](C)OC(=O)C[C@H](O)C[C@H](O)[C@@H](O)CC[C@H](O)C[C@H](O)C[C@](O)(C[C@@H]1O)O2	IIIB		antigen	<5 µg/mL
CCCC1(CCC)CC(O)=C(C(CC)c2cccc(NS(=O)(=O)c3cccc4cccnc34)c2)C(=O)O1	IIIB			2.1 µM
CC(C)c1ccccc1SC1=C(O)CC(CCc2ccccc2)(c2ccccc2)OC1=O	IIIB		p24	69 µM

Repeating the first 4 entries:

SMILES	strain	mutations	read by	value
COc1cc(-c2cc(=O)c3c(O)c(OC)c(OC)cc3o2)c(O)cc1O	IIIB		p24 / ELISA	17.3 µg/mL
CC1(C)CC[C@]2(C(=O)O)CC[C@]3(C(=O)/C=C/c4ccc(O)c(O)c4)C(=CCC4[C@@]5(C)CC[C@H](O)C(C)(C)C5CC[C@]43C)[C@@H]2C1				1.53 µg/mL
CC1(C)CC[C@]2(C(=O)O)CC[C@]3(C)C(=CC[C@@H]4[C@@]5(C)CC[C@H](O)C(C)(C)[C@@H]5CC[C@]43C)[C@@H]2C1	IIIB		p24	0.5 µg/mL
Nc1nc(=O)n([C@H]2C[C@H](O)[C@@H](CO)O2)cc1-c1ccncc1	IIIB		RT activity	>10 µg/mL